From patent US7741348B2, “Bisheterocycle tandem compounds useful as antiviral agents, the uses thereof and the compositions comprising such compounds” (Shanghai Institute of Materia Medica, Chinese Academy of …, priority 2005, dated 2010)

Assays:
Assay type in all cases: cell-based
hepatitis B virus (HBV) [1] = assay: HBeAg secretion in HepG2.2.15 culture supernatant (ELISA); conditions: selection coefficient, in brackets after the IC50; ratio CC50 / IC50
Source text: (§1) Hepatitis B virus (HBV) transgenic human hepatoma carcinoma cell, HepG2.2.15 cell line, can secrete hepatitis B virus particles (containing antigen and DNA) into supernatant when being cultured.
(§2) Under action of antiviral drugs, the contents of HBsAg, HBeAg and viral DNA secreted from cells into the supernatant were detected and are compared with the contents of control groups without drugs, so that the antiviral activity of the compounds of the present invention can be measured as well as the cytotoxic effect of compounds of the present invention. The value concentration of the compounds of the present invention which caused 50% of cells dead and was measured with MTT method was CC50; and the value concentration of the compounds of the present invention which inhibited the secretion of HBsAg and HBeAg detected by ELISA method and inhibited 50% of viral DNA replication detected by fluorescent quantification PCR method was IC50.
(§3) HepG2.2.15 cells were inoculated on a 96-well plate, and the compounds of the present invention were added next day. The medium and the compound solutions of the same concentration were renewed periodically. The culture supernatants were collected on the eighth day to be detected. MTT was added to the cells on the 96-well plate, and MTT dissolving liquid was added after 4 hours to be reacted overnight. OD570 was measured next day on microplate reader. And the cytotoxicity of the compounds of the present invention to the HepG2.2.15 cells, the effect of the compounds of the present invention on the growth of the cells, and the concentration of the compound of the present invention (CC50) causing 50% of the cells dead were estimated according to the OD values.
(§4) HBsAg and HBeAg were detected with assaying kits (purchased from Sino-American biotechnological company). Samples were added to the coated strip plate, and the same amount of enzyme labeled conjugate was added, after reacting under 37° C. for 1 hour, the plate was washed 5 times. Colorant solutions A and B were added, and the reaction was stopped after 15 minutes, and OD450/630 was measured. The half inhibition rate IC50 of the sample for the HBV antigen was calculated according to the OD values.

hepatitis B virus (HBV) [2] = assay: HBsAg secretion in HepG2.2.15 culture supernatant (ELISA); conditions: selection coefficient, in brackets after the IC50; ratio CC50 / IC50
Source text: as §1, §2, §3, §4

hepatitis B virus (HBV) [3] = assay: HBV-DNA replication in HepG2.2.15 culture supernatant (fluorescent quantification PCR); conditions: selection coefficient, in brackets after the IC50; ratio CC50 / IC50
Source text: as §1, §2, §3
A suitable amount of culture supernatant was added into a same volume of virus extract solution, and was boiled after mixed uniformly, then centrifuged at 10000 rpm for 5 min under room temperature. A suitable amount of supernatant was collected for PCR amplification. Five HBV-DNA standard samples were used to set a standard curve. According to the obtained viral DNA replication value, the inhibition rates of HBV-DNA replication of the compound of the present invention at different concentrations were calculated, and then the half inhibition rates of the compounds were calculated to obtain IC50. For the samples that can not be calculated for IC50 value, they can be represented by ICX and given the corresponding concentration values.

herpes virus II (HSV-II) = assay: Anti herpes virus II activity, cytopathic effect in Vero cells; conditions: SI = TC50/IC50
Source text: 3. Screening of the compounds for the anti-herpes virus I and II activity: Vero (African green monkey kidney) cells were used as virus host to test the inhibition effect of the compounds of the present invention on the cytopathic effect of the Vero cells caused by Herpes virus I and II.

Structure (SMILES) | HBeAg secreation SI (hepatitis B virus (HBV) [1]) | HBsAg secreation SI (hepatitis B virus (HBV) [2]) | DNA replication SI (hepatitis B virus (HBV) [3]) | Anti herpes virus II HSV-II (SI) (herpes virus II (HSV-II))
CCOC(=O)c1nc(-c2cccs2)[nH]c1-c1ccccc1 [Wang298] | 2.7 | 4 |  | 
CCOC(=O)c1nc(-c2nccs2)[nH]c1C1CCC1 [Compound C277] |  |  | > 32 | 
COC(=O)c1nc(-c2csc([C@@H](NC(=O)c3cccc(F)c3)C(C)C)n2)oc1C [Wang417.46-P] |  |  |  | 1.86
CCCCc1sc(-c2nccs2)nc1C(=O)OC [Wang282] | 6.9 | 6.75 | 20.5 | 
COC(=O)c1nc(-c2nccs2)sc1CC(C)C [Wang282-1] | > 15.4 | > 4.93 | > 138.8 | 
CCCCc1sc(-c2nccs2)nc1C(=O)O [Wang268] | 2 | 6.9 |  | 
COC(=O)c1nc(-c2csc([C@@H](NC(=O)c3ccccc3F)C(C)C)n2)oc1C [Wang417.46-J] |  | 5.3 |  | 
CCOC(=O)c1nc(-c2cscn2)sc1CC(C)C [Compound C296-3] |  |  | 826 | 
CCCc1[nH]c(-c2cccs2)nc1C(=O)OCC [Wang264] | 1.3 | 3 |  | 
CCOC(=O)c1nc(-c2cccs2)[nH]c1C1CCCCC1 [Compound C304] |  |  | > 22.2 | 
COC(=O)c1coc([C@H](C)NC(=O)c2nc(-c3csc([C@@H](NC(=O)C4CCCC4)C(C)C)n3)oc2C)n1 [Wang529.61-1] | 2.76 | 2.21 |  | 
CCOC(=O)c1nc(-c2ccc(C)s2)oc1CC(C)C [Compound C293] |  |  | 0.6 | 
CCOC(=O)c1nc(-c2cc3ccccc3[nH]2)[nH]c1CC(C)C [Compound C311-2] |  |  | 50 | 
CCOC(=O)c1nc(-c2cccs2)[nH]c1C1CC1 [Compound C262] |  |  | 8 | 
CCOC(=O)c1nc(-c2nc(CC)cs2)sc1CC(C)C [Compound C324-2] |  |  | > 571 | 
CCOC(=O)c1nc(-c2nccs2)[nH]c1C1CC1 [Compound C263-1] |  |  | > 27 | 
CCOC(=O)c1nc(-c2ccc(CC)s2)oc1CC(C)C [Compound C307] |  |  | 3.6 | 
O=C(O)c1nc(-c2nccs2)sc1Cc1ccccc1 [Wang302] | 2.3 |  | 3.1 | 
CCCCc1sc(-c2cccs2)nc1C(=O)OCC [Compound C295-1] |  |  | 4.3 | 
CCOC(=O)c1nc(-c2nccs2)[nH]c1C1CCCCC1 [Compound C305-2] |  |  | > 24.4 | 
CCCCc1[nH]c(-c2cccs2)nc1C(=O)OCC [Wang278] | 6.4 | 2.27 | 32.1 | 
COC(=O)c1nc(-c2ncco2)sc1-c1ccc(F)cc1Cl [Wang338] | 9 | 2.58 | 32.8 | 
CCOC(=O)c1nc(-c2cc3ccccc3s2)[nH]c1CC(C)C [Compound C328] |  |  | > 39.14 | 
Clc1nc(-c2nccs2)[nH]c1-c1ccccc1 [Wang261] | 3.3 | 1.3 |  | 
COC(=O)c1nc(-c2csc([C@@H](NC(=O)c3cccs3)C(C)C)n2)oc1C [Wang405.49] | 3.32 | 2.43 | 2.02 | 

Structure (SMILES) | HBeAg secreation SI (hepatitis B virus (HBV) [1]) | HBsAg secreation SI (hepatitis B virus (HBV) [2]) | DNA replication SI (hepatitis B virus (HBV) [3]) | Anti herpes virus II HSV-II (SI) (herpes virus II (HSV-II))
CCCCc1oc(-c2ccc(CCC)s2)nc1C(=O)OCC [Compound C321-1] |  |  | 13.65 | 
c1ccc(-c2cnc(-c3cccs3)s2)cc1 [Compound C243] |  |  | 206.1 | 
CCCc1[nH]c(-c2nccs2)nc1C(=O)OCC [Wang265] | 14.1 | 4.2 |  | 
CCOC(=O)c1nc(-c2cccs2)oc1C1CCCCC1 [Compound C305-1] |  |  | > 38 | 
c1ccc(-c2cnc(-c3cccs3)[nH]2)cc1 [Compound C226] |  |  | 23.1 | 
CCOC(=O)c1nc(-c2nc3cc(OC)ccc3s2)sc1CC(C)C [Compound C376] |  |  | 6 | 
Clc1nc(-c2cccs2)[nH]c1-c1ccccc1 [Wang260] | 3.1 | 3.8 |  | 
CCOC(=O)c1nc(-c2nccs2)oc1C1CCCCC1 [Compound C306] |  |  | > 125 | 
CCOC(=O)c1nc(-c2nccs2)[nH]c1CC(C)C [Wang279-1] | 7.7 | 5.5 |  | 
CC(C)Cc1cnc(-c2nccs2)o1 [Compound C208] |  |  | > 2.8 | 
CCOc1cnc(-c2oc(-c3cccs3)nc2C(=O)c2ccccc2)o1 [Compound C352] |  |  | > 4 | 
c1ccc(-c2cnc(-c3cccs3)o2)cc1 [Compound C227] |  |  | > 71 | 
COC(=O)c1nc(-c2nccs2)sc1Cc1ccccc1 [Wang316] | 2.5 | 5.2 |  | 
CCOC(=O)c1nc(-c2cccs2)sc1C1CCCCC1 [Compound C321-2] |  |  | > 16.9 | 
CCOC(=O)c1nc(-c2cccs2)[nH]c1CC(C)C [Wang278-1] | 4.8 | 2.6 |  | 
CCOC(=O)c1nc(-c2cc3ccccc3s2)sc1CC(C)C [Compound C345] |  |  | > 86.7 | 
CCOC(=O)c1nc(-c2nccs2)[nH]c1C1CCCC1 [Compound C291] |  |  | > 18.2 | 
COC(=O)c1nc(-c2csc([C@@H](NC(=O)c3csc([C@@H](NC(=O)OC(C)(C)C)C(C)C)n3)C(C)C)n2)oc1C [Wang 577.72] |  |  |  | 1.81
CC(C)Cc1sc(-c2nccs2)nc1C(=O)O [Wang268-1] | 4.3 | 4.9 | 2.9 | 
CCCCc1oc(-c2cccs2)nc1C(=O)OCC [Compound C279-2] |  |  | 1.38 | 
COC(=O)c1nc(-c2csc([C@@H](NC(=O)COCc3ccccc3)C(C)C)n2)oc1C [Wang 443.52] |  |  |  | 1.86
CCOC(=O)c1nc(-c2ccc(C)s2)[nH]c1CC(C)C [Compound C292] |  |  | 25.9 | 
CCOC(=O)c1nc(-c2ncc(C)s2)sc1CC(C)C [Compound C310] |  |  | > 571 | 
COC(=O)c1coc([C@H](C)NC(=O)c2nc(-c3csc([C@@H](NC(=O)C4CC4)C(C)C)n3)oc2C)n1 [Wang 501.56-1] |  |  |  | 2.41
